Compound potency records, mixed from different reports. Data source: NIAID ChemDB in PubChem.

Shared fields: tests in culture; agent: Staphylococcus aureus; endpoint: MIC

Rows are shuffled and stem from different studies.

SMILES,strain,result
CS(=O)(=O)NC1CCN(c2ccc(N3C[C@H](COc4ccon4)OC3=O)cc2F)CC1,004 (methicillin quinolone-resistant),8 µg/mL
CCCC/C=C/C(=O)NC[C@H]1CN(c2ccc3c(c2)-n2cccc2COC3)C(=O)O1,ATCC 33591 (MRSA),>32 µg/mL
O=C1O[C@@H](COc2ccon2)CN1c1ccc(-n2ccnn2)c(F)c1,122 (novobiocin-resistant),8 µg/mL
CC(=O)NC[C@H]1CN(c2ccc(-c3noc(C(F)(F)F)n3)c(F)c2)C(=O)O1,UC6685 (methicillin-resistant),16 µg/mL
CN(C)CCCN(C)c1cc2c(cc1F)c(=O)c(C(=O)O)cn2C1CC1,ATCC 6538P,0.78 µg/mL
CC(=O)NC[C@H]1CN(c2ccc(-c3ccn(CC#N)n3)c(F)c2)C(=O)O1,UC9213 (methicillin-susceptible),2 µg/mL
CC[C@H]1OC(=O)[C@H](C)C(=O)[C@H](C)[C@@H](O[C@@H]2O[C@H](C)C[C@H](N(C)C)[C@H]2O)[C@@]2(C)C[C@@H](C)C(=NC(C)=O)[C@H](C)[C@@H](OC/C(=N\OCc3ccc(C(N)=O)cc3)CO2)[C@]1(C)O,33591 (erythromycin methicillin-resistant),>64 µg/mL
CS(=O)(=O)N1CCN(c2ccc(N3C[C@H](COc4ccon4)OC3=O)cc2F)CC1,004 (methicillin quinolone-resistant),4 µg/mL
CC[C@H]1OC(=O)[C@@](C)(F)C(=O)[C@H](C)[C@@H](O[C@@H]2O[C@H](C)C[C@H](N(C)C)[C@H]2O)[C@@]2(C)C[C@@H](C)C(=N)[C@H](C)[C@@H](OC/C(=N\OCc3ccc(-c4nccs4)nc3)CO2)[C@]1(C)O,33591 (erythromycin methicillin-resistant),>64 µg/mL
CC(=O)NC[C@H]1CN(c2ccc(-c3noc(C(N)=O)n3)c(F)c2)C(=O)O1,UC6685 (methicillin-resistant),16 µg/mL
CNc1c(F)cc2c(=O)c(C(=O)O)cn(-c3cc(N)c(F)cc3F)c2c1C,209P,0.008 µg/mL
CCCCCCCCCCCC[N+](C)(C)CSCCC,ATCC33592,15 µM
CC(C)OC(=S)NC[C@H]1CN(c2ccc3c(c2)-n2cccc2COC3)C(=O)O1,ATCC 33591 (MRSA),32 µg/mL
CC[C@H]1OC(=O)[C@@](C)(F)C(=O)[C@H](C)[C@@H](O[C@@H]2O[C@H](C)C[C@H](N(C)C)[C@H]2O)[C@@]2(C)C[C@@H](C)C(=NC(C)=O)[C@H](C)[C@@H](OC/C(=N\OCc3ccc4cnn(C(N)=O)c4c3)CO2)[C@]1(C)O,29213 (erythromycin A-susceptible),0.13 µg/mL
CCCCCCCCCCCC[N+](C)(C)COCCCCCCCCCCC,ATCC33592,11.5 µM
CC(=O)NC[C@H]1CN(c2ccc(NC(=O)CO)c(F)c2)C(=O)O1,ATCC 29213 (linezolid-resistant),>64 µg/mL
C=C1COC2[C@@H](C)C(=NC(C)=O)[C@H](C)C[C@@](C)(OC1)[C@H](O[C@@H]1O[C@H](C)C[C@H](N(C)C)[C@H]1O)[C@@H](C)C(=O)[C@@H](C)C(=O)O[C@H](CC)[C@@]2(C)O,29213 (erythromycin-susceptible),1 µg/mL
CC[C@H]1OC(=O)[C@@](C)(F)C(=O)[C@H](C)[C@@H](O[C@@H]2O[C@H](C)C[C@H](N(C)C)[C@H]2O)[C@@]2(C)C[C@@H](C)C(=NC(C)=O)[C@H](C)[C@@H](OC/C(=N/OCc3ccc(-c4cccc(N)n4)s3)CO2)[C@]1(C)O,27660 (erythromycin A -resistant),0.25 µg/mL
CCCCCCCCCCCC[N+](C)(C)COCC(CC)CC,ATCC33592,2.75 µM
CCOC(=O)NC[C@H]1CN(c2ccc3c(c2)-n2cccc2COC3)C(=O)O1,ATCC 33591 (MRSA),16 µg/mL
CC[C@H]1OC(=O)[C@H](C)C(=O)[C@H](C)[C@@H](O[C@@H]2O[C@H](C)C[C@H](N(C)C)[C@H]2O)[C@@]2(C)C[C@@H](C)C(=NC(=O)CO)[C@H](C)C(OC/C(=C\C=C\c3ccccc3)CO2)[C@]1(C)O,29213 (erythromycin-susceptible),0.5 µg/mL
CC[C@H]1OC(=O)[C@H](C)C(=O)[C@H](C)[C@@H](O[C@@H]2O[C@H](C)C[C@H](N(C)C)[C@H]2O)[C@@]2(C)C[C@@H](C)C(=NC(C)=O)[C@H](C)[C@@H](OC/C(=N\Oc3ccc(-n4cccn4)nc3)CO2)[C@]1(C)O,27660 (erythromycin-resistant),0.13 µg/mL
CCCCCCCCCCCC[N+](C)(C)COCC(C)CCC,ATCC33592,1.65 µM
CC(=O)NC[C@H]1CN(c2ccc(N(C)C=O)c(F)c2)C(=O)O1,ATCC 29213 (linezolid-resistant),>64 µg/mL
CC[C@H]1OC(=O)[C@H](C)C(=O)[C@H](C)[C@@H](O[C@@H]2O[C@H](C)C[C@H](N(C)C)[C@H]2O)[C@@]2(C)C[C@@H](C)C(=NC(C)=O)[C@H](C)C(OC/C(=C\C=C\c3cccnc3)CO2)[C@]1(C)O,29213 (erythromycin-susceptible),0.5 µg/mL
CC(=O)NC[C@H]1CN(c2ccc(-c3csc(C)c3)c(F)c2)C(=O)O1,UC9213 (methicillin-susceptible),2 µg/mL
CC(=S)NC[C@H]1CN(c2ccc3c(c2)-n2cccc2COC3)C(=O)O1,ATCC 29213 (MSSA),1 µg/mL
COc1ccccc1CNc1cc2c(cc1F)c(=O)c(C(=O)O)cn2C1CC1,ATCC 5278 (methicillin-resistant),3.12 µg/mL
CC(=O)NC[C@H]1CN(c2ccc(NC(=O)c3cnccn3)c(F)c2)C(=O)O1,ATCC 29213 (linezolid-resistant),>64 µg/mL
Cc1c(NCCCO)c(F)cc2c(=O)c(C(=O)O)cn(-c3cc(N)c(F)cc3F)c12,W200 (methicillin-resistant),0.03 µg/mL
CC[C@H]1OC(=O)[C@@](C)(F)C(=O)[C@H](C)[C@@H](O[C@@H]2O[C@H](C)C[C@H](N(C)C)[C@H]2O)[C@@]2(C)C[C@@H](C)C(=NC(C)=O)[C@H](C)[C@@H](OC/C(=N\OCc3ccc(-c4nccs4)nc3)CO2)[C@]1(C)O,33591 (erythromycin methicillin-resistant),16 µg/mL
NCCCCCCCCCNc1cc2c(cc1F)c(=O)c(C(=O)O)cn2C1CC1,ATCC 5278 (methicillin-resistant),>100 µg/mL
CC[C@H]1OC(=O)[C@H](C)C(=O)[C@H](C)[C@@H](O[C@@H]2O[C@H](C)C[C@H](N(C)C)[C@H]2O)[C@@]2(C)C[C@@H](C)C(=NC(C)=O)[C@H](C)[C@@H](OC/C(=N\OCC#Cc3ncccn3)CO2)[C@]1(C)O,27660 (erythromycin-resistant),0.25 µg/mL
CCCCCCCCCCCCOC[N+](C)(C)CCCCCCCC,ATCC33592,12.8 µM
CC[C@H]1OC(=O)[C@H](C)C(=O)[C@H](C)[C@@H](O[C@@H]2O[C@H](C)C[C@H](N(C)C)[C@H]2O)[C@@]2(C)C[C@@H](C)C(=NC(C)=O)[C@H](C)[C@@H](OC/C(=N\OCc3cccc(N)n3)CO2)[C@]1(C)O,25923 (erythromycin-susceptible),0.25 µg/mL
Nc1cn(-c2ccc(N3C[C@H](COc4ccccn4)OC3=O)cc2F)cn1,004 (methicillin quinolone-resistant),2 µg/mL
CC[C@H]1OC(=O)[C@H](C)[C@@H](O[C@H]2C[C@@](C)(OC)[C@@H](O)[C@H](C)O2)[C@H](C)[C@@H](O[C@H]2O[C@@H](C)C[C@@H](N(C)C)[C@@H]2O)[C@](C)(O)C[C@@H](C)C(=O)[C@H](C)[C@@H](O)[C@]1(C)O,27660 (erythromycin-resistant),>64 µg/mL
CC(=O)NC[C@H]1CN(c2ccc(-c3noc(C#N)n3)c(F)c2)C(=O)O1,UC6685 (methicillin-resistant),16 µg/mL
COCCCNc1cc2c(cc1F)c(=O)c(C(=O)O)cn2C1CC1,ATCC 5278 (methicillin-resistant),>100 µg/mL
CC[C@H]1OC(=O)[C@@](C)(F)C(=O)[C@H](C)[C@@H](O[C@@H]2O[C@H](C)C[C@H](N(C)C)[C@H]2O)[C@@]2(C)C[C@@H](C)C(=NC(C)=O)[C@H](C)[C@@H](OC/C(=N\OCc3ccc4nc(N)sc4c3)CO2)[C@]1(C)O,29213 (erythromycin A-susceptible),0.13 µg/mL
CC[C@H]1OC(=O)[C@H](C)C(=O)[C@H](C)[C@@H](O[C@@H]2O[C@H](C)C[C@H](N(C)C)[C@H]2O)[C@@]2(C)C[C@@H](C)C(=NC(C)=O)[C@H](C)C(OC/C(=C\C=C\c3ccccc3)CO2)[C@]1(C)O,29213 (erythromycin-susceptible),0.5 µg/mL
O=C(NC[C@H]1CN(c2ccc3c(c2)-n2cccc2COC3)C(=O)O1)c1ccccc1,ATCC 33591 (MRSA),>32 µg/mL
CC[C@H]1OC(=O)[C@H](C)C(=O)[C@H](C)[C@@H](O[C@@H]2O[C@H](C)C[C@H](N(C)C)[C@H]2O)[C@@]2(C)C[C@@H](C)C(=NC(=O)CN)[C@H](C)C(OC/C(=C\C=C\c3ccccc3)CO2)[C@]1(C)O,27660 (erythromycin-resistant),1 µg/mL
CCNc1c(F)cc2c(=O)c(C(=O)O)cn(-c3cc(N)c(F)cc3F)c2c1C,W44 (methicillin-resistant),0.12 µg/mL
CC[C@H]1OC(=O)[C@H](C)C(=O)[C@H](C)[C@@H](O[C@@H]2O[C@H](C)C[C@H](N(C)C)[C@H]2O)[C@@]2(C)C[C@@H](C)C(=NC(C)=O)[C@H](C)C(OC/C(=C\c3ccccc3)CO2)[C@]1(C)O,29213 (erythromycin-susceptible),0.5 µg/mL
O=C(O)c1cn(C2CC2)c2cc(NCCCCCO)c(F)cc2c1=O,ATCC 6538P,12.5 µg/mL
CO/N=C1\CN(c2nc3c(cc2F)c(=O)c(C(=O)O)cn3C2CC2)CC1CN,KU2240,0.031 µg/mL
CC(=O)NC[C@H]1CN(c2ccc(NC(=O)c3ccc(F)o3)c(F)c2)C(=O)O1,ATCC 29213 (linezolid-resistant),>64 µg/mL
CC[C@H]1OC(=O)[C@H](C)C(=O)[C@H](C)[C@@H](O[C@@H]2O[C@H](C)C[C@H](N(C)C)[C@H]2O)[C@@]2(C)C[C@@H](C)C(=NC(C)=O)[C@H](C)[C@@H](OC/C(=N\OCc3ccc(-c4ncccn4)s3)CO2)[C@]1(C)O,29213 (erythromycin A-susceptible),0.25 µg/mL
CS(=O)(=O)N[C@H]1CCN(c2ccc(N3C[C@H](COc4cnsn4)OC3=O)cc2F)C1,078 (oxford),0.25 µg/mL
O=C(O)c1cn(C2CC2)c2cc(NCCO)c(F)cc2c1=O,ATCC 6538P,6.25 µg/mL
CC[C@H]1OC(=O)[C@@](C)(F)C(=O)[C@H](C)[C@@H](O[C@@H]2O[C@H](C)C[C@H](N(C)C)[C@H]2O)[C@@]2(C)C[C@@H](C)C(=O)[C@H](C)[C@@H](OC/C(=N\OCc3ccc(-n4cccn4)nc3)CO2)[C@]1(C)O,33591 (erythromycin methicillin-resistant),>64 µg/mL

A second listing of 4 rows from above:

SMILES,strain,result
CC[C@H]1OC(=O)[C@H](C)C(=O)[C@H](C)[C@@H](O[C@@H]2O[C@H](C)C[C@H](N(C)C)[C@H]2O)[C@@]2(C)C[C@@H](C)C(=NC(C)=O)[C@H](C)C(OC/C(=C\C=C\c3cccnc3)CO2)[C@]1(C)O,29213 (erythromycin-susceptible),0.5 µg/mL
CC(=O)NC[C@H]1CN(c2ccc(-c3noc(C(F)(F)F)n3)c(F)c2)C(=O)O1,UC6685 (methicillin-resistant),16 µg/mL
CC[C@H]1OC(=O)[C@H](C)C(=O)[C@H](C)[C@@H](O[C@@H]2O[C@H](C)C[C@H](N(C)C)[C@H]2O)[C@@]2(C)C[C@@H](C)C(=NC(C)=O)[C@H](C)C(OC/C(=C\c3ccccc3)CO2)[C@]1(C)O,29213 (erythromycin-susceptible),0.5 µg/mL
COCCCNc1cc2c(cc1F)c(=O)c(C(=O)O)cn2C1CC1,ATCC 5278 (methicillin-resistant),>100 µg/mL